A mixed list of measured activities; the numbers were collected in NIAID ChemDB.

Shared fields: whole-cell or culture tests; organism: HIV-1; measure: inhibition

Two numbers with a dash give a range or band. Percent inhibition refers to the dose given; in toxicity tests it is the harm to the cells. An empty or dashed field is not shown. Conditions beyond the fields shown may differ between rows.

compound | cell line | strain or isolate | method | tested at | setting | result
CC1(C)[C@@H](O[C@H]2O[C@H](C(=O)O)[C@@H](O)[C@H](O)[C@H]2O[C@@H]2O[C@H](C(=O)O)[C@@H](O)[C@H](O)[C@H]2O)CC[C@]2(C)[C@H]3C(=O)C=C4[C@@H]5C[C@@](C)(C(=O)O)CC[C@]5(C)CC[C@@]4(C)[C@]3(C)CC[C@@H]12 | MOLT-4 | IIIB | antigen | 1200 µM | 9 d | 94.1%
O=C(NCCc1ccccc1)Nc1nc(C(F)(F)F)cs1 | MT-4 | - | RT activity | 1 µg/mL | - | 97%
O=C(C(=O)N1CCN(C(=O)c2ccccc2)CC1)c1c[nH]c2cc(C(F)(F)F)ccc12 | HeLa + HELA CD4+/CCR5 | - | luciferase | 10 µM | - | 38%
O=C1[C@@H](Cc2ccc(O)cc2)NC(=S)N1c1ccccc1 | MT-4 | - | cytopathic effect / XTT | 10 µg/mL | - | 19–34%
CC(C)(C)OC(=O)Nc1cccc(C(=O)N2CCN(C(=O)C(=O)c3c[nH]c4cccc(Cl)c34)CC2)c1 | HeLa + HELA CD4+/CCR5 | - | luciferase | 10 µM | - | 97%
Cc1ccc(-c2ccc3c(c2)C=C(C(=O)Nc2ccc(C[N+](C)(C)C4CCOCC4)cc2)CCC3)cc1 | PBMC | TB2 CLADE C | p24 | 1 µM | - | 99.3%
N=C1Sc2ccccc2C2=NCCCN12 | TZM-bl | 92TH006 | β-galactosidase | 7.8 µM | - | 90%
COc1cccc2[nH]cc(C(=O)C(=O)N3CCN(C(=O)c4ccccn4)C[C@H]3C)c12 | HeLa + HELA CD4+/CCR5 | - | luciferase | 10 µM | - | >98%
C[C@H]1[C@H](O)[C@@H](C)/C=C/C=C/C=C/C=C/C=C/C=C/C=C/[C@H](O[C@@H]2O[C@H](C)[C@@H](O)[C@H](N)[C@@H]2O)C[C@@H]2O[C@](O)(C[C@@H](O)C[C@@H](O)CC[C@H](O)[C@@H](O)C[C@@H](O)CC(=O)O[C@H]1C)C[C@H](O)[C@H]2C(=O)O | PBMC | G3 CLADE G R5 (NSI) | p24 / RT activity | 1.5 µM | - | 90%
N#Cc1csc(NC(=O)NCCc2ccccc2)n1 | MT-4 | - | cytopathic effect / XTT | 100 µg/mL | - | 0%
CCCCCC1CN(C(=O)c2ccccc2)CCN1C(=O)C(=O)c1c[nH]c2c(C(=O)OC)cccc12 | HeLa + HELA CD4+/CCR5 | - | luciferase | 10 µM | - | 92%
O=C(NCCc1ccccc1)NCc1ccoc1 | MT-4 | - | cytopathic effect / XTT | 10 µg/mL | - | 7%
O=c1oc2cc(O)c(O)cc2c(O)c1-c1coc2c1c(=O)oc1cc(O)c(O)cc12 | MT-4 | IIIB | MTT | 1 µM | - | 25%
O=C(NCCc1ccccc1)Nc1nc2c(Cl)cccc2s1 | MT-4 | - | cytopathic effect / XTT | 100 µg/mL | - | 100%
COc1ccc(Cl)c2[nH]cc(C(=O)C(=O)N3CCN(C(=O)c4ccccn4)C[C@H]3C)c12 | HeLa + HELA CD4+/CCR5 | - | luciferase | 10 µM | - | >98%

Again, the opening 2 rows:

compound	cell line	strain or isolate	method	tested at	setting	result
CC1(C)[C@@H](O[C@H]2O[C@H](C(=O)O)[C@@H](O)[C@H](O)[C@H]2O[C@@H]2O[C@H](C(=O)O)[C@@H](O)[C@H](O)[C@H]2O)CC[C@]2(C)[C@H]3C(=O)C=C4[C@@H]5C[C@@](C)(C(=O)O)CC[C@]5(C)CC[C@@]4(C)[C@]3(C)CC[C@@H]12	MOLT-4	IIIB	antigen	1200 µM	9 d	94.1%
O=C(NCCc1ccccc1)Nc1nc(C(F)(F)F)cs1	MT-4	-	RT activity	1 µg/mL	-	97%